Results as given in patent publication US12306178B2 (priority 2022, dated 2025).

Legend:
[1] = system: AFB1-ScFV-AP bifunctional fusion protein; settings: kit for AFB1, relative to AFB1
[2] = system: DON-ScFV-AP bifunctional fusion protein; settings: kit for DON, relative to DON

| Molecule | Cross-reaction rate (%) [1] [%] | Cross-reaction rate (%) [2] [%] |
| --- | --- | --- |
| CC1=C[C@H]2O[C@@H]3[C@H](O)C[C@](C)([C@@]2(CO)[C@H](O)C1=O)[C@]31CO1 [DON, Deoxynivalenol] | <1 |  |
| 15-acetyldeoxynivalenol | <1 | 3.7 |
| deoxynivalenol-3-glucoside | <1 |  |
| fumonisin B3 | <1 |  |
| fumonisin B2 | <1 |  |
| ochratoxin A | <1 | <1 |
| fumonisin B1 | <1 |  |
| CC1=C[C@H]2O[C@@H]3[C@H](O)[C@@H](O)[C@](C)([C@@]2(CO)[C@H](O)C1=O)[C@]31CO1 [NIV, nivalenol] | <1 | <1 |
| 3-acetyldeoxynivalenol | <1 |  |
| C[C@H]1CCCC(=O)CCC/C=C/c2cc(O)cc(O)c2C(=O)O1 [ZEN, zearalenone] | <1 | <1 |
